US20210386367A1, “DEVICES AND SYSTEMS FOR GASTROINTESTINAL MICROBIOME DETECTION AND MANIPULATION” (Progenity, Inc., priority 2018, published 2021)

Key:
[1] = tested on: E. coli, Streptococcus spp., and Bacteroides spp. isolates; format: cell-based; details: SIBO pathogens in vitro
[2] = tested on: E. coli spontaneous mutants; assay: Broth microdilution MIC of spontaneous mutants; format: cell-based, Escherichia coli; details: colonies selected at 4× and 8× the MIC
[3] = tested on: E. coli (ATCC 25922, ATCC 35218, MMX 1312); assay: Spontaneous mutation frequency assay; format: cell-based, Escherichia coli; details: E. coli MMX 1312
Streptococcus spp. = assay: Spontaneous mutation frequency assay; format: cell-based
Bacteroides spp. = assay: Spontaneous mutation frequency assay; format: cell-based; details: B. vulgatus ATCC 8482

CO/N=C(\C(=O)N[C@@H]1C(=O)N2C(C(=O)O)=C(CSc3nc(=O)c(=O)[nH]n3C)CS[C@H]12)c1csc(N)n1 [ceftriaxone]
propensity for spontaneous resistance [1]: little propensity for resistance to develop spontaneously
broth microdilution MIC of selected colonies relative to parent strain [2]: consistent with that of the parent strain
colonies on selection plates [3]: too numerous to count
colonies on selection plates (Streptococcus spp.): No E. coli, Streptococcus spp., or B. vulgatus colonies were selected
colonies on selection plates (Bacteroides spp.): colonies were only observed at 4× the MIC
